Each structure is given as a SMILES string. The entries are a selection whose mix differs from that of the whole data set.

One experiment concerns primary human airway basal cells (HBEC, luciferase-transduced). Kind of experiment: proliferation (luciferase bioluminescence) Z score relative to plate mean; higher = more proliferation / more cells, active = 1.96 or more. The following applies: donor: 1; 0.5 µM; library: ENZO Libraries; 4 days. The protocol:
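Primary human bronchial epithelial (airway basal) cells from two donors, lentivirally transduced with pHIV-Luc-ZsGreen, were seeded at 2000 cells/well in 384-well plates in FAD medium with ENZO or Prestwick library compounds and cultured for 4 days. Luciferin was then added and bioluminescence was read as a measure of cell number. Relative light units were converted to Z scores against the plate, and the mean of triplicate wells is reported.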
Take `COc1ccc(C=C(C#N)C#N)cc1`: the proliferation was inactive: -0.342.

The same experiment, now with this note: donor: 1; 5 µM; library: ENZO Libraries; 4 days.
On to `COc1ccc(C=C(C#N)C#N)cc1`, for which the proliferation is inactive: -0.0696.
